Source: PubChem BioAssay AID1259414 (Drosophila RNAi Screening Center, 2018)
Screen: 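Host factors increasing or decreasing Wolbachia levels in cultured fly cells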 (primary screen). Cells: Drosophila JW18 cells infected with Wolbachia. Reagent: long dsRNA against Drosophila genes, 0.25 µg dsRNA per well of a 384-well plate. Time to read-out: 5 days. Treatment: cells persistently infected with Wolbachia before knock-down; no added drug. Measurement: 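Imaged fluorescence in situ signal for Wolbachia 23S rRNA per DAPI-counted host cell, given as a robust z-score within each plate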. Scale: Wolbachia per cell robust z: higher = more Wolbachia per host cell than the plate typical. Call rule: 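Active if absolute robust z reaches 1.5 in two or more of three replicates, leaving out multi- or no-target dsRNAs, genes unexpressed in JW18 and A1 wells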.
The deposit covers about 24,000 reagents; shown is a random part of those that have a named target and a result. In the full data, about 1,210 (5%) were called active. 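Inactive calls also include excluded dsRNAs with several or no targets, genes unexpressed in JW18, and well A1, regardless of score.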 A plus sign joins genes that one reagent is predicted to hit. Reagent sequences are not shown.

Gene	dsRNA	Wolbachia per cell robust z, rep 1	Wolbachia per cell robust z, rep 2	Wolbachia per cell robust z, rep 3	call
Cyp6a9 (Cytochrome P450 6a9)	DRSC07385	-2.88	-0.52	-0.465	inactive
Rab9Db + Rab9Fa	DRSC18445	-0.562	0.749	0.0834	inactive
Hsc70-5 (Heat shock protein 70 cognate 5)	DRSC07442	0.847	-3.58	2.43	inactive
Hsc70-5 (Heat shock protein 70 cognate 5)	DRSC24015	-0.183	0.339	-0.0504	inactive
CalpA (Calpain-A)	DRSC07352	0.0351	1.06	0.29	inactive
l(3)72Dr (lethal (3) 72Dr)	DRSC10478	0.622	1.15	0.547	inactive
brv2 (brivido-2)	DRSC10226	0.91	1.24	2.68	inactive
brv2 (brivido-2)	DRSC29796	0.576	0.399	-0.201	inactive
CG13287	DRSC09961	0.378	-1.21	0.241	inactive
CG13287	DRSC26934	0.327	1.22	0.581	inactive
CG1074	DRSC12143	-2.86	0.195	1.07	inactive
CG1074	DRSC29045	-0.692	0.0261	0.162	inactive
CG15653	DRSC04244	-3.22	0.285	0.0517	inactive
RpL35A (Ribosomal protein L35A)	DRSC12302	0.441	1.27	2.93	inactive
CG34342	DRSC09756	-0.801	-1.89	-0.799	inactive
CG34342	DRSC22515	0.151	-1.2	-0.0529	inactive
CG34342	DRSC24023	0.33	-0.568	-1.25	inactive
Nepl9 (Neprilysin-like 9)	DRSC02255	-1.82	-0.422	-0.344	inactive
CG18190	DRSC06714	0.563	0.0832	0.316	inactive
CG18190	DRSC27920	0.341	0.136	-0.474	inactive
SIFa (SIFamide)	DRSC04480	1.06	-0.588	1.97	inactive
ey (eyeless)	DRSC17173	-1.08	0.746	0.201	inactive
ey (eyeless)	DRSC26309	0.613	-1.18	1.61	inactive
Taf12 (TBP-associated factor 12)	DRSC16879	-8.01	-0.4	0.168	inactive
Taf12 (TBP-associated factor 12)	DRSC28181	0.953	0.629	1.12	inactive
Or30a (Odorant receptor 30a)	DRSC03385	-1.67	-0.511	-2.19	inactive
CG30015	DRSC05241	-1.28	-1.07	-0.549	inactive
CG30015	DRSC07027	0.849	0.452	-0.811	inactive
CG30015	DRSC07028	-0.281	-0.0499	-1.44	inactive
SmE (Small ribonucleoprotein particle protein SmE)	DRSC02680	0.721	-0.598	2.27	inactive
CG34214	DRSC04490	-0.864	-7.17	-1.1	inactive
CG17778	DRSC18504	1.46	1.53	1.87	inactive
Art1 (Arginine methyltransferase 1)	DRSC16063	-1.3	-0.74	-0.521	inactive
CG13461	DRSC10008	1.24	1.01	1.17	inactive
CG13461	DRSC24462	0.13	-0.195	-0.811	inactive
AsnRS-m (Asparaginyl-tRNA synthetase, mitochondrial)	DRSC07010	0.01	0.495	0.0926	inactive
CG33722 + CG18749	DRSC12674	-7.8	0.0703	-1.07	inactive
CG33722 + CG18749	DRSC28983	-0.264	0.717	-0.709	inactive
RpS18 (Ribosomal protein S18)	DRSC07540	1.92	0.551	0.0475	inactive
Eglp2 (Entomoglyceroporin 2)	DRSC04294	-5.99	0.56	-0.403	inactive
hry (hairy)	DRSC23249	-0.00208	0.421	-0.035	inactive
hry (hairy)	DRSC30106	0.766	1.03	0.677	inactive

Records above whose gene name starts with T or t:
Gene	dsRNA	Wolbachia per cell robust z, rep 1	Wolbachia per cell robust z, rep 2	Wolbachia per cell robust z, rep 3	call
Taf12 (TBP-associated factor 12)	DRSC16879	-8.01	-0.4	0.168	inactive
Taf12 (TBP-associated factor 12)	DRSC28181	0.953	0.629	1.12	inactive

Additional records follow.
Gene	dsRNA	Wolbachia per cell robust z, rep 1	Wolbachia per cell robust z, rep 2	Wolbachia per cell robust z, rep 3	call
Rip11 (Rab11 interacting protein)	DRSC20000	0.662	-0.846	0.4	inactive
Rip11 (Rab11 interacting protein)	DRSC29902	-0.699	-0.281	0.216	inactive
lncRNA:CR32368 (long non-coding RNA:CR32368)	DRSC08899	1.12	-0.00913	-7.29	inactive
lncRNA:CR32368 (long non-coding RNA:CR32368)	DRSC25473	-0.155	0.611	0.627	inactive
CG13796 + CG31904	DRSC22161	0.158	-1.91	-0.336	inactive
PK2-R2 (Pyrokinin 2 receptor 2)	DRSC16448	-4.45	0.72	0.16	inactive
PK2-R2 (Pyrokinin 2 receptor 2)	DRSC25536	-0.365	1.1	0.0893	inactive
Tsp42Ei (Tetraspanin 42Ei)	DRSC06189	0.199	-5.56	-7.32	inactive
Tsp42Ei (Tetraspanin 42Ei)	DRSC26994	0.611	0.174	0.111	inactive
Seipin	DRSC18654	0.446	0.844	0.927	inactive
Zpr1	DRSC18432	0.673	0.727	-0.202	inactive
dgt1 (dim gamma-tubulin 1)	DRSC15301	0.141	-0.111	0.482	inactive
CG18853	DRSC06795	0.506	-0.613	0.243	inactive
CG45049	DRSC16163	0.116	-1.52	-5.78	active
CG45049	DRSC23175	0.643	-0.274	1.22	inactive
Cpr57A + Obp57d	DRSC06708	0.545	0.449	0.245	inactive
Cpr57A + Obp57d	DRSC22719	0.571	-0.676	0.238	inactive
CG3918	DRSC23159	-1.38	-0.519	-0.573	inactive
CG3918	DRSC28834	0.198	1.57	1.03	inactive
swa (swallow)	DRSC18842	0.897	0.353	0.225	inactive
swa (swallow)	DRSC25555	-0.0814	-0.808	-0.643	inactive
Upf2	DRSC18218	-0.252	0.526	0.964	inactive
Upf2	DRSC27785	0.392	1.97	0.79	inactive
cpb (capping protein beta)	DRSC00809	-6.74	-1.29	-1.84	active
cpb (capping protein beta)	DRSC29870	0.492	0.782	0.186	inactive
RhoGAP93B (Rho GTPase activating protein at 93B)	DRSC15488	-0.549	0.575	0.541	inactive
EbpIII (Ejaculatory bulb protein III)	DRSC04638	-0.282	0.552	0.873	inactive
Obp56b (Odorant-binding protein 56b)	DRSC06551	-0.222	0.0865	0.0866	inactive
Tim17a1	DRSC14184	1.44	-3.84	0.108	inactive
Vps53 (Vacuolar protein sorting 53)	DRSC00595	0.962	-8.58	0.535	inactive
EMC5 (ER membrane protein complex subunit 5)	DRSC02469	-0.961	-0.184	-0.488	inactive
Ddrgk1 (DDRGK domain containing 1)	DRSC15897	0.0747	-0.336	-4.68	inactive
Ddrgk1 (DDRGK domain containing 1)	DRSC27688	-0.719	-0.764	-0.659	inactive
Tsp2A (Tetraspanin 2A)	DRSC18584	0.785	0.764	-0.0311	inactive
galectin	DRSC00305	-6.34	0.0844	-0.821	inactive
DEF8 (differentially expressed in FDCP 8 homolog)	DRSC09840	-1.07	-0.39	-0.982	inactive
Trf4 (TBP-related factor 4)	DRSC38927	-0.671	-0.429	-0.457	inactive
atlas	DRSC04183	-0.936	-0.404	-0.715	inactive
Vm26Aa (Vitelline membrane 26Aa)	DRSC03472	0.511	0.0674	-5.58	inactive
Vm26Aa (Vitelline membrane 26Aa)	DRSC25243	-2.48	-0.244	-0.983	inactive
CG7173	DRSC23252	0.399	-3.05	-0.386	inactive
CG7173	DRSC29453	-0.0649	-0.197	-6.85	inactive
Snap25 (Synaptosomal-associated protein 25kDa)	DRSC21228	0.145	0.00517	-0.872	inactive
Snap25 (Synaptosomal-associated protein 25kDa)	DRSC21236	0.338	-0.305	0.963	inactive
LTV1 (LTV1 ribosome biogenesis factor)	DRSC05951	-0.836	-1.35	-0.106	inactive
